According to patent US6518317B1, “Antiviral agents” (priority 1997, dated 2003):
Like-named read-outs stand apart in the source and are kept apart here.

Columns and labels:
[1] = test system: adenovirus of type 5 (Adenoid 75; ATCC VR-5); assay: Adenovirus hexon protein in HeLa cells, cyclopentenone added after infection; assay type: cell-based; settings: 20 μM or more
[2] = test system: adenovirus type 5 (Adenoid 75; ATCC VR-5); assay: Adenovirus hexon protein in HeLa cells, cyclopentenone before and after infection; assay type: cell-based; settings: 20 μM or less
[3] = test system: influenza virus A/PR/8/34 strain
[4] = test system: influenza virus A/PR/8/34 strain; remark: listed apart in the source
[5] = test system: Japanese encephalitis virus (JEV Ja0Ar-363-70 strain); assay: Japanese encephalitis virus titer in Vero cells, cyclopentenone after infection
[6] = test system: influenza virus A/PR/8/34 strain; remark: listed apart in the source
[7] = test system: influenza virus A/PR/8/34 strain; remark: listed apart in the source
[8] = test system: influenza virus A/PR/8/34 strain; remark: listed apart in the source
[9] = test system: influenza virus A/PR/8/34 strain; remark: listed apart in the source

O=C1C=CC(O)C1O (stereo not drawn) [cyclopentenone, 4,5-dihydroxy-2-cyclopenten-1-one]
growth of the cells [1]: as same as that in the sections to which none of the cyclopentenone was added | growth of the cells [2]: as same as in the section to which none of the cyclopentenone was added | titer of the virus compared with the control ([3]; 20 μM or more, before and after infection, m.o.i. 0.01): apparently lowered | titer of the virus ([3]; 20 μM, day 0 after infection, before and after infection, m.o.i. 0.01): <1.0 × 10^2 pfu/ml | titer of the virus ([3]; 20 μM, day 1 after infection, before and after infection, m.o.i. 0.01): 9.8 × 10^4 pfu/ml | titer of the virus ([3]; 20 μM, day 2 after infection, before and after infection, m.o.i. 0.01): 1.6 × 10^5 pfu/ml | titer of the virus ([3]; 20 μM, day 3 after infection, before and after infection, m.o.i. 0.01): 1.3 × 10^5 pfu/ml | titer of the virus ([3]; 40 μM, day 0 after infection, before and after infection, m.o.i. 0.01): <1.0 × 10^2 pfu/ml | titer of the virus ([3]; 40 μM, day 1 after infection, before and after infection, m.o.i. 0.01): <1.0 × 10^2 pfu/ml | titer of the virus ([3]; 40 μM, day 2 after infection, before and after infection, m.o.i. 0.01): <1.0 × 10^2 pfu/ml | titer of the virus ([3]; 40 μM, day 3 after infection, before and after infection, m.o.i. 0.01): <1.0 × 10^2 pfu/ml | state of the MDCK cells ([3]; […]): not eliminated but adhered | titer of the virus ([4]; 5 μM, day 2 after infection, after infection, m.o.i. 0.001): 8.8 × 10^4 pfu/ml | titer of the virus ([4]; 5 μM, day 3 after infection, after infection, m.o.i. 0.001): 2.6 × 10^4 pfu/ml | titer of the virus compared with the control ([4]; 10 μM or more, after infection, m.o.i. 0.001): apparently lowered | titer of the virus ([4]; 10 μM, day 0 after infection, after infection, m.o.i. 0.001): <1.0 × 10^2 pfu/ml | titer of the virus ([4]; 10 μM, day 1 after infection, after infection, m.o.i. 0.001): <1.0 × 10^2 pfu/ml | titer of the virus ([4]; 10 μM, day 2 after infection, after infection, m.o.i. 0.001): 2.0 × 10^5 pfu/ml | titer of the virus ([4]; 10 μM, day 3 after infection, after infection, m.o.i. 0.001): 1.8 × 10^4 pfu/ml | titer of the virus ([4]; 20 μM, day 0 after infection, after infection, m.o.i. 0.001): <1.0 × 10^2 pfu/ml | titer of the virus ([4]; 20 μM, day 1 after infection, after infection, m.o.i. 0.001): <1.0 × 10^2 pfu/ml | titer of the virus ([4]; 20 μM, day 2 after infection, after infection, m.o.i. 0.001): 1.8 × 10^4 pfu/ml | titer of the virus ([4]; 20 μM, day 3 after infection, after infection, m.o.i. 0.001): 1.2 × 10^4 pfu/ml | titer of the virus ([4]; 40 μM, day 0 after infection, after infection, m.o.i. 0.001): <1.0 × 10^2 pfu/ml | titer of the virus ([4]; 40 μM, day 1 after infection, after infection, m.o.i. 0.001): <1.0 × 10^2 pfu/ml | titer of the virus ([4]; 40 μM, day 2 after infection, after infection, m.o.i. 0.001): <1.0 × 10^2 pfu/ml | titer of the virus ([4]; 40 μM, day 3 after infection, after infection, m.o.i. 0.001): <1.0 × 10^2 pfu/ml | state of the MDCK cells ([4]; […]): not eliminated but adhered | numbers of the focus compared with the control ([5]; 10 μM or more, added after infection): apparently decreased | titer of the virus ([5]; 10 μM, 1 day after inoculation of virus, added after infection): 6.0 × 10^3 pfu/ml | titer of the virus ([5]; 10 μM, 2 days after inoculation of virus, added after infection): 2.4 × 10^6 pfu/ml | titer of the virus ([5]; 10 μM, 3 days after inoculation of virus, added after infection): 4.4 × 10^6 pfu/ml | titer of the virus ([5]; 20 μM, 1 day after inoculation of virus, added after infection): 6.4 × 10^3 pfu/ml | titer of the virus ([5]; 20 μM, 2 days after inoculation of virus, added after infection): 1.9 × 10^6 pfu/ml | titer of the virus ([5]; 20 μM, 3 days after inoculation of virus, added after infection): 3.0 × 10^6 pfu/ml | titer of the virus ([5]; 40 μM, 1 day after inoculation of virus, added after infection): 0 pfu/ml | titer of the virus ([5]; 40 μM, 2 days after inoculation of virus, added after infection): 0 pfu/ml | titer of the virus ([5]; 40 μM, 3 days after inoculation of virus, added after infection): 0 pfu/ml | state of the Vero cells ([5]; […]): not eliminated but adhered | titer of the virus ([6]; 5 μM, day 1 after infection, before infection, m.o.i. 0.01): 4.0 × 10^5 pfu/ml | titer of the virus ([6]; 5 μM, day 2 after infection, before infection, m.o.i. 0.01): 8.0 × 10^5 pfu/ml | titer of the virus ([6]; 5 μM, day 3 after infection, before infection, m.o.i. 0.01): 9.6 × 10^4 pfu/ml | titer of the virus compared with the control ([6]; 10 μM or more, before infection, m.o.i. 0.01): apparently lowered | titer of the virus ([6]; 10 μM, day 0 after infection, before infection, m.o.i. 0.01): <1.0 × 10^2 pfu/ml | titer of the virus ([6]; 10 μM, day 1 after infection, before infection, m.o.i. 0.01): 2.0 × 10^5 pfu/ml | titer of the virus ([6]; 10 μM, day 2 after infection, before infection, m.o.i. 0.01): 7.2 × 10^5 pfu/ml | titer of the virus ([6]; 10 μM, day 3 after infection, before infection, m.o.i. 0.01): 2.4 × 10^5 pfu/ml | titer of the virus ([6]; 20 μM, day 0 after infection, before infection, m.o.i. 0.01): <1.0 × 10^2 pfu/ml | titer of the virus ([6]; 20 μM, day 1 after infection, before infection, m.o.i. 0.01): 2.2 × 10^3 pfu/ml | titer of the virus ([6]; 20 μM, day 2 after infection, before infection, m.o.i. 0.01): 2.6 × 10^5 pfu/ml | titer of the virus ([6]; 20 μM, day 3 after infection, before infection, m.o.i. 0.01): 3.8 × 10^5 pfu/ml | titer of the virus ([6]; 40 μM, day 0 after infection, before infection, m.o.i. 0.01): <1.0 × 10^2 pfu/ml | titer of the virus ([6]; 40 μM, day 1 after infection, before infection, m.o.i. 0.01): 4.0 × 10^2 pfu/ml | titer of the virus ([6]; 40 μM, day 2 after infection, before infection, m.o.i. 0.01): 1.9 × 10^5 pfu/ml | titer of the virus ([6]; 40 μM, day 3 after infection, before infection, m.o.i. 0.01): 5.6 × 10^5 pfu/ml | state of the MDCK cells ([6]; […]): not eliminated but adhered | titer of the virus ([7]; 5 μM, day 2 after infection, before infection, m.o.i. 0.001): 5.2 × 10^5 pfu/ml | titer of the virus ([7]; 5 μM, day 3 after infection, before infection, m.o.i. 0.001): 4.0 × 10^4 pfu/ml | titer of the virus compared with the control ([7]; 10 μM or more, before infection, m.o.i. 0.001): apparently lowered | titer of the virus ([7]; 10 μM, day 0 after infection, before infection, m.o.i. 0.001): <1.0 × 10^2 pfu/ml | titer of the virus ([7]; 10 μM, day 1 after infection, before infection, m.o.i. 0.001): <1.0 × 10^2 pfu/ml | titer of the virus ([7]; 10 μM, day 2 after infection, before infection, m.o.i. 0.001): 6.2 × 10^5 pfu/ml | titer of the virus ([7]; 10 μM, day 3 after infection, before infection, m.o.i. 0.001): 8.6 × 10^4 pfu/ml | titer of the virus ([7]; 20 μM, day 0 after infection, before infection, m.o.i. 0.001): <1.0 × 10^2 pfu/ml | titer of the virus ([7]; 20 μM, day 1 after infection, before infection, m.o.i. 0.001): <1.0 × 10^2 pfu/ml | titer of the virus ([7]; 20 μM, day 2 after infection, before infection, m.o.i. 0.001): 5.0 × 10^5 pfu/ml | titer of the virus ([7]; 20 μM, day 3 after infection, before infection, m.o.i. 0.001): 1.1 × 10^5 pfu/ml | titer of the virus ([7]; 40 μM, day 0 after infection, before infection, m.o.i. 0.001): <1.0 × 10^2 pfu/ml | titer of the virus ([7]; 40 μM, day 1 after infection, before infection, m.o.i. 0.001): <1.0 × 10^2 pfu/ml | titer of the virus ([7]; 40 μM, day 2 after infection, before infection, m.o.i. 0.001): 4.4 × 10^3 pfu/ml | titer of the virus ([7]; 40 μM, day 3 after infection, before infection, m.o.i. 0.001): 8.0 × 10^3 pfu/ml | state of the MDCK cells ([7]; […]): not eliminated but adhered | titer of the virus ([8]; 5 μM, day 2 after infection, before and after infection, m.o.i. 001): 4.4 × 10^5 pfu/ml | titer of the virus ([8]; 5 μM, day 3 after infection, before and after infection, m.o.i. 001): 5.6 × 10^4 pfu/ml | titer of the virus compared with the control ([8]; 10 μM or more, before and after infection, m.o.i. 001): apparently lowered | titer of the virus ([8]; 10 μM, day 0 after infection, before and after infection, m.o.i. 001): <1.0 × 10^2 pfu/ml | titer of the virus ([8]; 10 μM, day 1 after infection, before and after infection, m.o.i. 001): <1.0 × 10^2 pfu/ml | titer of the virus ([8]; 10 μM, day 2 after infection, before and after infection, m.o.i. 001): 4.8 × 10^5 pfu/ml | titer of the virus ([8]; 10 μM, day 3 after infection, before and after infection, m.o.i. 001): 2.8 × 10^4 pfu/ml | titer of the virus ([8]; 20 μM, day 0 after infection, before and after infection, m.o.i. 001): <1.0 × 10^2 pfu/ml | titer of the virus ([8]; 20 μM, day 1 after infection, before and after infection, m.o.i. 001): <1.0 × 10^2 pfu/ml | titer of the virus ([8]; 20 μM, day 2 after infection, before and after infection, m.o.i. 001): 3.2 × 10^4 pfu/ml | titer of the virus ([8]; 20 μM, day 3 after infection, before and after infection, m.o.i. 001): 2.8 × 10^4 pfu/ml | titer of the virus ([8]; 40 μM, day 0 after infection, before and after infection, m.o.i. 001): <1.0 × 10^2 pfu/ml | titer of the virus ([8]; 40 μM, day 1 after infection, before and after infection, m.o.i. 001): <1.0 × 10^2 pfu/ml | titer of the virus ([8]; 40 μM, day 2 after infection, before and after infection, m.o.i. 001): <1.0 × 10^2 pfu/ml | titer of the virus ([8]; 40 μM, day 3 after infection, before and after infection, m.o.i. 001): <1.0 × 10^2 pfu/ml | state of the MDCK cells ([8]; […]): not eliminated but adhered | titer of the virus ([9]; 5 μM, day 1 after infection, after infection, m.o.i. 0.01): 2.4 × 10^5 pfu/ml | titer of the virus ([9]; 5 μM, day 2 after infection, after infection, m.o.i. 0.01): 1.5 × 10^6 pfu/ml | titer of the virus ([9]; 5 μM, day 3 after infection, after infection, m.o.i. 0.01): 1.9 × 10^5 pfu/ml | titer of the virus compared with the control ([9]; 10 μM or more, after infection, m.o.i. 0.01): apparently lowered | titer of the virus ([9]; 10 μM, day 0 after infection, after infection, m.o.i. 0.01): <1.0 × 10^2 pfu/ml | titer of the virus ([9]; 10 μM, day 1 after infection, after infection, m.o.i. 0.01): 1.9 × 10^5 pfu/ml | titer of the virus ([9]; 10 μM, day 2 after infection, after infection, m.o.i. 0.01): 3.4 × 10^5 pfu/ml | titer of the virus ([9]; 10 μM, day 3 after infection, after infection, m.o.i. 0.01): 1.7 × 10^5 pfu/ml | titer of the virus ([9]; 20 μM, day 0 after infection, after infection, m.o.i. 0.01): <1.0 × 10^2 pfu/ml | titer of the virus ([9]; 20 μM, day 1 after infection, after infection, m.o.i. 0.01): 1.2 × 10^5 pfu/ml | titer of the virus ([9]; 20 μM, day 2 after infection, after infection, m.o.i. 0.01): 1.0 × 10^6 pfu/ml | titer of the virus ([9]; 20 μM, day 3 after infection, after infection, m.o.i. 0.01): 7.2 × 10^5 pfu/ml | titer of the virus ([9]; 40 μM, day 0 after infection, after infection, m.o.i. 0.01): <1.0 × 10^2 pfu/ml | titer of the virus ([9]; 40 μM, day 1 after infection, after infection, m.o.i. 0.01): <1.0 × 10^2 pfu/ml | titer of the virus ([9]; 40 μM, day 2 after infection, after infection, m.o.i. 0.01): <1.0 × 10^2 pfu/ml | titer of the virus ([9]; 40 μM, day 3 after infection, after infection, m.o.i. 0.01): <1.0 × 10^2 pfu/ml | state of the MDCK cells ([9]; […]): not eliminated but adhered
